Test results: PMC7482817 (Theranostics, 2020)

Test system: E. coli (mcr-1)
Test: pEtN-lipid A conjugate by LC-MS/MS
Settings: different concentrations of melatonin

`COc1ccc2[nH]cc(CCNC(C)=O)c2c1` [Melatonin, N-acetyl-5-methoxytryptamine] was tested, and the “pEtN-lipid A conjugate (1920.3 Da)” value was “decreased pEtN-lipid A conjugate”.
